Measured values from several laboratories, pooled; numbers as filed in NIAID ChemDB.

All rows: tests in culture; organism: Herpes simplex virus 1

Blank or dashed fields: not listed here. Rows are shuffled and stem from different studies. ECn: concentration that inhibits the pathogen or its effect by n%.

compound	measure	method	cells	strain	result
CO[C@H]1[C@H](O)[C@@H](CO)O[C@H]1n1ccc(N)nc1=O	EC50	cytopathic effect	PRK	-	>200 µg/mL
CN(C)c1c(C#N)c2cc(Cl)c(Cl)cc2n1[C@@H]1O[C@H](CO)[C@@H](O)[C@H]1O	EC50	ELISA	BSC-1	-	>100 µM
Nc1ccn([C@@H]2O[C@H](CO)[C@@H](O)[C@H]2N)c(=O)n1	EC50	cytopathic effect	PRK	KOS	>200 µg/mL
O=c1c2ncn(COC(CO)CO)c2nc2[nH]c(-c3ccccc3)cn12	EC50	cytopathic effect	E6SM	McIntyre	0.005 µg/mL
CCCCNc1c(C=O)c2cc(Cl)c(Cl)cc2n1[C@@H]1O[C@H](CO)[C@@H](O)[C@H]1O	EC50	ELISA	BSC-1	-	15 µM
Nc1nc2c(ncn2C[C@@H](CO)CCO)c(=O)[nH]1	EC50	cytopathic effect / ELISA	HEL	R35	0.8 µM
O=c1[nH]c(=O)n([C@H]2C[C@H](O)[C@@H](CO)O2)cc1/C(F)=C(/F)Cl	EC50	plaque count	VERO	-	>100 µg/mL
Nc1nc2c(ncn2COCCO)c(=O)[nH]1	EC50	plaque count	VERO	-	45 µg/mL
O=c1[nH]c(=O)n([C@H]2C[C@H](O)[C@@H](CO)O2)cc1/C=C/Br	EC99	virus yield	PRK	B2006 (TK-)	>100 µg/mL
O=c1ccn(CC=C(CO)CO)c(=O)[nH]1	EC50	-	-	-	>100 µg/mL
Nc1nc2c(ncn2C/C=C\CO)c(=O)[nH]1	EC50	plaque count	BHK	C42	25 µM
Cc1[nH]c2nc3c(ncn3COCCO[Si](C)(C)C(C)(C)C)c(=O)n2c1C(c1ccccc1)(c1ccccc1)c1ccccc1	EC50	cytopathic effect	-	KOS	>10 µg/mL
Cc1cc(C)c(OC(=O)c2ccc(Cl)cc2)c(=O)c(C)c1	EC50	plaque count	HFF	Clinical isolate	1.63 µM
CCCCCCCC/C=C\CCCCCCCOCCCOP1(=O)CO[C@@H](Cn2ccc(N)nc2=O)CO1	EC50	plaque count	HFF	F	0.3 µM
CC(=O)n1c(Cl)c([C@@H]2O[C@H](CO)[C@@H](O)[C@H]2O)c2cc(Cl)c(Cl)cc21	EC50	ELISA	BSC-1	-	>100 µM
C#Cc1cnc(C(C)=O)nc1C(C)=O	EC50	plaque count	VERO	-	>100 µM
Nc1ncnc2c1c(I)cn2COCCO	EC50	plaque count	BSC-1	-	100 µM
O=c1[nH]c(=O)n(COCCO)cc1I	EC50	cytopathic effect	PRK	-	>400 µg/mL
O=c1[nH]c(=O)n([C@H]2C[C@H](O)[C@@H](CO)O2)cc1C1=C(F)C(F)(F)C(F)(F)C(F)(F)C1(F)F	EC50	plaque count	VERO	-	>100 µg/mL
Nc1nc2c(ncn2C[C@H](CO)CCO)c(=O)[nH]1	EC50	cytopathic effect / ELISA	HEL	R35	>100 µM
N#Cc1c(Cl)n([C@@H]2O[C@H](CO)[C@@H](O)[C@H]2O)c2cc(Cl)c(Cl)cc12	EC50	ELISA	BSC-1	-	15 µM
O=C(CC1CCCCC1)N(O)c1ccc(Cl)cc1	EC50	cytopathic effect	E6SM	KOS ACV-resistant TK-	>80 µg/mL
O=c1[nH]c(=O)n([C@@H]2C[C@H](O)[C@@H](CO)O2)cc1C(F)=C(Cl)Cl	EC50	plaque count	VERO	-	>100 µg/mL
CC(=O)OCCOCn1cnc2c(Cl)ncnc21	EC50	cytopathic effect	PRK	-	70 µg/mL
CC(C)Nc1c(C=O)c2cc(Cl)c(Cl)cc2n1[C@@H]1O[C@H](CO)[C@@H](O)[C@H]1O	EC50	ELISA	BSC-1	-	35 µM
COc1ccc(-c2[nH]c3nc4c(ncn4COCCO)c(=O)n3c2-c2ccc(C(c3ccccc3)c3ccccc3)cc2)cc1	EC50	cytopathic effect	-	VMW 1837	>16 µg/mL
[N-]=[N+]=N[C@H]1[C@H](O)[C@H](n2cnc3c(N)ncnc32)O[C@@H]1CO	EC50	cytopathic effect	PRK	KOS	>200 µg/mL
CCCCNc1c(C#N)c2cc(Cl)c(Cl)cc2n1[C@@H]1O[C@H](CO)[C@@H](O)[C@H]1O	EC50	ELISA	BSC-1	-	>100 µM
CCCCCCCC/C=C\CCCCCCCCOCCOP(=O)(O)CO[C@H](CO)Cn1ccc(N)nc1=O	EC50	plaque count	HFF	E-377	0.03 µM
C#Cc1cnc(OC)nc1OC	EC50	plaque count	VERO	-	>100 µM
O=C(C1CC1)N(O)c1ccc(Cl)cc1	EC50	cytopathic effect	E6SM	KOS	>80 µg/mL
NC(N)=N/N=C1/C/C(=N\N=C(N)N)c2cc3ccccc3cc21	EC50	virus yield	VERO	13	2 µM
COc1ncc(I)c(OC)n1	EC50	plaque count	VERO	-	>100 µM
Cc1cn([C@H]2C[C@H](O)[C@]3(CO)C[C@H]23)c(=O)[nH]c1=O	EC50	plaque count	VERO	-	0.02 µM
Nc1nc2c(ncn2COC2COP(=O)(O)OC2)c(=O)[nH]1	EC50	cytopathic effect / ELISA	HEL	R35	7.8 µM
COC[C@H]1O[C@@H](n2ccc(N)nc2=O)[C@@H](O)[C@@H]1O	EC50	cytopathic effect	PRK	-	40 µg/mL
Nc1nc2c(ccn2[C@H]2CO[C@@H](CO)C2)c(=O)[nH]1	EC50	cytopathic effect	E6SM	B2006 (TK-)	125 µg/mL
CC(=O)NC(CCc1ccc(Cl)c(Cl)c1)c1cccc(O)c(=O)c1	EC50	plaque count	VERO	Clinical isolate	0.42 µM
Nc1ccn(CC=C(CO)CO)c(=O)n1	EC50	-	-	-	>100 µg/mL
Nc1ccn([C@@H]2OCC(CO)=C2F)c(=O)n1	EC50	-	-	-	>100 µg/mL
Nc1nc2c(ncn2COCCO)c(=O)[nH]1	EC50	plaque count	HFF	F	0.2 µg/mL
C/C=C/c1cn([C@H]2C[C@H](O)[C@@H](CO)O2)c(=O)[nH]c1=O	EC99	virus yield	PRK	B2006 (TK-)	>100 µg/mL
C/C(=C\CCC(C)[C@H]1CC[C@@]2(C)C3=CCC4C(C)(C)[C@@H](O)CC[C@]4(C)C3=CC[C@]12C)CO	EC50	-	VERO	-	68 µM
O=c1[nH]cnc2c1ncn2OCCOCP(=O)(O)O	EC50	cytopathic effect	MRC-5	SC16	>340 µM
Cc1cn(COCCO)c(=O)[nH]c1=O	EC50	cytopathic effect	PRK	-	>400 µg/mL
Cc1ccn2c(CSCCO)cnc2c1	EC50	cytopathic effect	E6SM	VMW1837 (TK-)	>200 µg/mL
[N-]=[N+]=N[C@H]1[C@H](O)[C@@H](CO)O[C@H]1n1cnc2c(N)ncnc21	EC50	cytopathic effect	PRK	KOS	>200 µg/mL
CC(=O)OCCOCn1cnc2c(Cl)nc(N)nc21	EC50	cytopathic effect	PRK	-	20 µg/mL
OCC(CO)OCn1cc(Br)c2c(NO)ncnc21	EC90	virus yield	HFF	-	>100 µM
O=c1[nH]c(=O)n(COCCO)cc1Br	EC50	cytopathic effect	PRK	-	>400 µg/mL
O=C(OC1C2c3c(O)cc(O)cc3C[C@@H]1c1cc(O)c(O)c(O)c1Oc1cc(cc(O)c1O)C(=O)O[C@@H]1Cc3c(O)cc(O)c2c3O[C@@H]1c1cc(O)c(O)c(O)c1)c1cc(O)c(O)c(O)c1	EC50	plaque count	VERO	KOS	11.4 µM
NC(=S)c1cn(COC(CO)CO)c2ncnc(N)c12	EC50	plaque count	HFF	-	16 µM
C/C(=C\Cn1ccc(N)nc1=O)CO	EC50	-	-	-	>100 µg/mL
Cn1c(Cl)c([C@@H]2O[C@H](CO)[C@@H](O)[C@H]2O)c2cc(Cl)c(Cl)cc21	EC50	ELISA	BSC-1	-	>100 µM
N=C(N)CCNC(=O)c1c[nH]c(NC(=O)c2c[nH]c(NC(=O)c3ccc(CC(=O)Nc4c[nH]c(C(=O)Nc5c[nH]c(C(=O)NCCC(=N)N)c5)c4)cc3)c2)c1	EC50	cytopathic effect	PRK	-	10 µg/mL
CCCCCCCCCCCCOCCCOP(=O)(O)CO[C@H](CO)Cn1ccc(N)nc1=O	EC50	plaque count	HFF	F	0.5 µM
O=C(NCc1ccc(Cl)cc1)c1c[nH]c2c(F)cccc2c1=O	EC50	plaque count	-	6 isolates	22 µM
OC[C@H]1O[C@@H](n2c(Cl)nc3cc(Cl)c(Cl)cc32)[C@H](O)[C@@H]1O	EC50	ELISA	HFF	-	102 µM
[N-]=[N+]=N[C@@H]1[C@H](O)[C@@H](CO)O[C@H]1n1ccc(N)nc1=O	EC50	cytopathic effect	PRK	KOS	≥200 µg/mL
CCCCCCCCCCCCCCCCOP1(=O)CO[C@@H](Cn2ccc(N)nc2=O)CO1	EC50	plaque count	HFF	HL-3	>1 µM
[N-]=[N+]=N[C@H]1[C@@H](F)[C@H](n2cnc3c(N)ncnc32)O[C@@H]1CO	EC50	cytopathic effect	PRK	KOS	>400 µg/mL
Nc1nc2c(nc(Cl)n2COCCO)c(=O)[nH]1	EC50	cytopathic effect	PRK	-	70 µg/mL
Cc1ccc(SCC(CF)OCn2cc(F)c(=O)[nH]c2=O)cc1	EC50	plaque count	VERO	-	>50 µg/mL
CC(=O)OCCOCn1cnc2c(=O)n3cc(-c4ccc5ccccc5c4)[nH]c3nc21	EC50	cytopathic effect	-	VMW 1837	>16 µg/mL
Nc1nc(Cl)c2ccn([C@H]3CO[C@@H](CO)C3)c2n1	EC50	cytopathic effect	E6SM	B2006 (TK-)	>400 µg/mL
[N-]=[N+]=N[C@@H]1[C@H](O)[C@@H](CO)O[C@H]1n1cnc2c(=O)[nH]c(N)nc21	EC50	cytopathic effect	PRK	KOS	>200 µg/mL
O=c1c2ncn(COC(CO)CO)c2nc2[nH]c(-c3ccccc3)cn12	EC50	cytopathic effect	-	McIntyre	0.005 µg/mL
Cc1cn(CC=C(CO)CO)c(=O)[nH]c1=O	EC50	-	-	-	>100 µg/mL
C=C(C)[C@@H]1CCc2c(O)c(O)c(=O)cc(C)c2C1	EC50	plaque count	VERO	Clinical isolate	0.35 µM
Nc1ccn(C[C@H]2COP(=O)(O)CO2)c(=O)n1	EC50	plaque count	HFF	F	13.6 µM
COc1cc(NC(=O)c2ccccc2F)ccc1NC(=S)NC1=CC(Cl)C(C)(OC)C=C1	EC50	ELISA	VERO	-	0.05 µg/mL
Cc1cccc(C)c1N(CC(=O)Nc1ccc(-c2ncon2)cc1)C(C)C1CCS(=O)(=O)CC1	EC50	plaque count	Vero Cells + HEF cells	A4-3	0.067 µM
N=C(N)CCNC(=O)c1c[nH]c(NC(=O)c2c[nH]c(NC(=O)CCCCCCC(=O)Nc3c[nH]c(C(=O)Nc4c[nH]c(C(=O)NCCC(=N)N)c4)c3)c2)c1	EC50	cytopathic effect	PRK	-	10 µg/mL
[N-]=[N+]=N[C@H]1[C@@H](O)[C@H](n2cnc3c(N)ncnc32)O[C@@H]1CO	EC50	cytopathic effect	PRK	KOS	≥40 µg/mL
Cc1ccc(SC[C@@H](OCn2cnc3c(N)ncnc32)[C@@H](C)F)cc1	EC50	plaque count	VERO	-	>100 µg/mL
N=C(N)CCNC(=O)c1c[nH]c(NC(=O)c2c[nH]c(NC(=O)c3c[nH]c(NC(=O)CCC(=O)Nc4c[nH]c(C(=O)Nc5c[nH]c(C(=O)Nc6c[nH]c(C(=O)NCCC(=N)N)c6)c5)c4)c3)c2)c1	EC50	cytopathic effect	PRK	-	4 µg/mL
Nc1nc2c(ncn2COCCOP(=O)(O)O)c(=O)[nH]1	EC50	cytopathic effect	VERO	-	0.16 µg/mL
O=c1cc(O)ccn1COCCO	EC50	cytopathic effect	PRK	-	>400 µg/mL
Nc1nc2c(ncn2COC(CO)COP(=O)(O)OP(=O)(O)OP(=O)(O)O)c(=O)[nH]1	EC50	cytopathic effect	VERO	-	0.3 µg/mL
O=c1[nH]c(=O)n(COCCO)cc1F	EC50	cytopathic effect	PRK	-	>400 µg/mL
Nc1ccn([C@H]2C[C@H](CO)[C@@H](CO)O2)c(=O)n1	EC50	-	-	-	2.8 µg/mL
Nc1nc2c(ncn2COCCOP(=O)(O)OP(=O)(O)O)c(=O)[nH]1	EC50	cytopathic effect	VERO	-	0.25 µg/mL